# How the values were obtained:
# [1] = Chrome azurol S (CAS) Fe3+ binding assay
# [2] = 4-(2-Pyridylazo)-resorcinol (PAR) Zn2+ binding assay; conditions: molar ratios 0.5-25 compound : Zn^2+
# [3] = Metal binding by ESI-HRMS
smiles,measurement,setting,value
"COC(=O)[C@@H](NC(=O)c1cccc(O)c1O)[C@H](O)Cc1ccc([N+](=O)[O-])cc1 [compound 6, β-lactone methanolysed obafluorin]","Fe^3+ binding, CAS colour change blue to orange (in words)",[1],"much more pronounced than with 2,3-DHBA alone"
"O=C(N[C@@H]1C(=O)O[C@@H]1Cc1ccc([N+](=O)[O-])cc1)c1cccc(O)c1O [compound 1, Obafluorin]","Zn^2+ binding, displacement of PAR from Zn(PAR)2 (in words)",[2],some weak Zn^2+ binding
same,metal binding by ESI-HRMS (mass shift),[3]; +Fe^2+ (1 mM),No mass shift
same,metal binding by ESI-HRMS (mass shift),"[3]; +Fe^3+ (1 mM), compound 100 μg mL^−1","strong, selective interaction"
same,metal binding by ESI-HRMS (mass shift),[3]; +Ga^3+ (1 mM),No mass shift
same,metal binding by ESI-HRMS (mass shift),[3]; +Mg^2+ (1 mM),No mass shift
same,metal binding by ESI-HRMS (mass shift),[3]; +Mn^2+ (1 mM),a peak consistent with a [M − H + Mn^2+]^+ species
same,metal binding by ESI-HRMS (mass shift),[3]; +Zn^2+ (1 mM),No mass shift
same,metal binding by ESI-HRMS (species observed),[3]; mixture of all metal ions tested,only the [M − 2H + Fe^3+]^+ ion was observed
same,"Fe^3+ binding, CAS colour change blue to orange (in words)",[1],strong ferric iron binding
"O=C(N[C@H](C(=O)O)[C@H](O)Cc1ccc([N+](=O)[O-])cc1)c1cccc(O)c1O [compound 5, β-lactone hydrolysed obafluorin]","Fe^3+ binding, CAS colour change blue to orange (in words)",[1],"much more pronounced than with 2,3-DHBA alone"
"c1ccc(CN(CCN(Cc2ccccn2)Cc2ccccn2)Cc2ccccn2)nc1 [TPEN, N,N,N′,N′-tetrakis(2-pyridinylmethyl)-1,2-ethanediamine, reference compound]","Zn^2+ binding, displacement of PAR from Zn(PAR)2 (in words)",[2],completely displaced PAR at molar ratios of >1
"O=C(N[C@@H]1C(=O)O[C@@H]1Cc1ccc([N+](=O)[O-])cc1)c1ccccc1O [compound 2, 2-HBA-obafluorin]","Fe^3+ binding, CAS colour change blue to orange (in words)",[1],abolishes
"O=C(N[C@@H]1C(=O)O[C@@H]1Cc1ccc([N+](=O)[O-])cc1)c1cccc(O)c1 [compound 3, 3-HBA-obafluorin]","Fe^3+ binding, CAS colour change blue to orange (in words)",[1],abolishes
"O=C(N[C@@H]1C(=O)O[C@@H]1Cc1ccc([N+](=O)[O-])cc1)c1ccccc1 [compound 4, BA-obafluorin]","Fe^3+ binding, CAS colour change blue to orange (in words)",[1],abolishes

# — paper PMC10619133, “The catechol moiety of obafluorin is essential for antibacterial activity” (RSC Chemical Biology, 2023)
